Results of unrelated studies side by side (data: NIAID ChemDB).

Shared fields: growth or infection tests; species: HIV-1; method: p24; endpoint: EC50

ECn: concentration that inhibits the pathogen or its effect by n%. Rows are shuffled and stem from different studies. a–b is a range or a potency band. An empty or dashed field is not shown.

compound | strain | cells | changes | result
O=C(N[C@@H](Cc1ccccc1)C(=O)C(F)(F)C(Cc1ccccc1)NS(=O)(=O)c1ccccc1)O[C@H]1CCOC1 | IIIB | CEM | - | <1 µM
COc1ccc(-c2c(-c3ccc(C)cc3)nc3c(N4CC[C@@H](NC(C)=O)C4)cc(C)nn23)cc1OC | - | H9 | - | 0.05 µM
CC1(C)c2nc(C(=O)NCc3ccc(F)cc3)c(O)c(=O)n2CCN1CC(=O)NCc1ccncc1 | - | MT-4 | - | <1 µM
CC(C)CN(C[C@@H](O)[C@H](Cc1ccccc1)NC(=O)O[C@H]1CO[C@H]2OCC[C@H]21)S(=O)(=O)c1ccc2c(c1)OCO2 | 92UG037 | PHA-PBM | - | 0.0004 µM
COc1ccc2c(c1)C1=C(CC2)C(=O)NCCN1Cc1cccc(C)c1 | - | OM-10.1 | - | 0.2 µM
Cc1cn(-c2ccc(C(=O)NC(C)(C)C(=O)N[C@@]34CC[C@]5(C)[C@H](CC[C@@H]6[C@@]7(C)CC[C@H](OC(=O)C8C[C@@H](C(=O)O)C8(C)C)C(C)(C)[C@@H]7CC[C@]65C)C3=C(C(C)C)C(=O)C4)cc2)cn1 | NL4-3 | MT-4 | - | >0.01 µM
COc1ccc2sc3c(c2c1)SCC(C)/C3=N\O | - | OM-10.1 | - | 0.1 µM
COc1ccc(-c2c(C)nc3c(N4CC[C@@H](NC(C)=O)C4)cc(C)nn23)cc1F | - | H9 | - | 0.6 µM
CCN1c2ncc(CCOc3ccc4cc(CC(=O)O)ccc4c3C)cc2C(=O)N(C)c2cccnc21 | WT | C8166 | - | <0.1 µM
CC(=O)N[C@@H]1CCN(c2cc(C)nn3c(-c4ccc5ccn(C)c5c4)c(C)nc23)C1 | - | H9 | - | 1 µM
CCN1CCn2c(nc(C(=O)NCc3ccc(F)cc3)c(O)c2=O)C(N(C)C(=O)C(=O)N(C)C)C1 | - | MT-4 | - | <1 µM
CC(=O)N1CCC(C(=O)N(CCCN2CCC(Cc3ccc(C(N)=O)cc3)CC2)c2ccc(C)c(Cl)c2)CC1 | HHA Clinical isolates | PBMC | - | 0.0006 µM
CCCCCN1CCNC(=O)C2=C1c1cc(OC)ccc1CC2 | - | OM-10.1 | - | 1.1 µM
CC(=O)N1CCC(n2c(=O)c(O)c3n(c2=O)CCN(Cc2ccc(F)cc2)C3=O)CC1 | - | MT-4 | - | <10 µM
CCN1c2ncc(CCOc3ccc(C(=O)O)c4c3CCCC4)cc2C(=O)N(C)c2ccc(OC)nc21 | - | C8166 | RT-K103N Y181C | <0.1 µM
Nc1nccc2c1ncn2[C@@H]1C=C(CO)[C@@H](O)[C@H]1O | 18601 unpaired | PBMC | - | 0.046 µM
Cc1ccc(C(=O)NC2(C(=O)N[C@@]34CC[C@]5(C)[C@H](CC[C@@H]6[C@@]7(C)CC[C@H](OC(=O)C8C[C@@H](C(=O)O)C8(C)C)C(C)(C)[C@@H]7CC[C@]65C)C3=C(C(C)C)C(=O)C4)CC2)cc1 | NL4-3 | MT-4 | - | <0.005 µM
COc1ccc(-c2nn(C)c3c(N4CC[C@@H](NC(C)=O)C4)nc(C)nc23)cc1OC | - | H9 | - | >100 µM
CC(C)n1c(=O)c(O)c2n(c1=O)CCN(Cc1ccc3ccccc3c1)C2=O | - | MT-4 | - | <10 µM
CCN1c2ncc(CCOc3ccc(S(=O)(=O)Nc4ccc(C(=O)O)cc4)cc3C)cc2C(=O)N(C)c2cccnc21 | - | C8166 | RT-K103N Y181C | >0.05 µM
COc1ccc(S(=O)(=O)N(CC2CCCC2)C[C@@H](O)CN(CCc2ccccc2)C(C)=O)cc1 | IIIB | CEM | - | <1 µM
COc1ccc2c(c1)C1=C(CC2)C(=O)NCCN1Cc1cccc(Cl)c1 | - | OM-10.1 | - | 0.1 µM
CC(C)n1c(=O)c(O)c2n(c1=O)C(COCc1ccccc1)CN(Cc1ccc(F)cc1)C2=O | - | MT-4 | - | <10 µM
CC(C)=CCOc1cc(NC(=S)c2ccsc2C)ccc1Cl | NL4-3 | CEM + CEM-SS | RT-Y181C | 0.03 µM
CN1CCn2c(nc(C(=O)NCc3ccc(F)cc3)c(O)c2=O)C(N(C)S(=O)(=O)N(C)C)C1 | - | MT-4 | - | <1 µM
CCN1c2ncc(CCOc3ccc(NS(=O)(=O)C(F)(F)F)c4ccccc34)cc2C(=O)N(C)c2ccc(F)nc21 | WT | C8166 | - | <0.1 µM
Clc1cc(CN2CCCNCCNCCCNCC2)cc(Cl)n1 | HE R3 R5 X4 | U87-CD4-CCR3 + U87 | - | >40 µM
O=C(O)c1cc(-n2cccc2)ccc1Cl | 93TH051 X4R5 CLADE E | PBMC + MT-2 | - | 23.6 µM
COc1ccc(S(=O)(=O)N(CC(C)C)C[C@@H](O)CCN(CCc2ccccc2)C(=O)O[C@H]2COC3OCCC32)cc1 | IIIB | CEM | - | <1 µM
COc1ccc2c(c1)C1=C(CC2)C(=O)NCCN1CC(C)C | - | OM-10.1 | - | 0.7 µM
CCN1c2ncc(CCOc3ccc(NC(=O)NCC(=O)O)cc3C)cc2C(=O)N(C)c2cccnc21 | IIIB | C8166 | - | 0.01–0.05 µM
COc1ccc(S(=O)(=O)N(CC(C)C)C[C@@H](O)CCN(CC2CCCC2)S(=O)(=O)C2CCCC2)cc1 | IIIB | CEM | - | <1 µM
COc1ccc(-c2c(C)nc3c(N4CC[C@@H](N=[N+]=[N-])C4)cc(C)nn23)cc1OC | - | H9 | - | 0.7 µM
CCO[C@@H]1Cc2cc(C(F)(F)F)ccc2C1N1CCN(C2(C)CCN(C(=O)c3c(C)ncnc3C)CC2)C[C@@H]1C | 92/BR/004 | PBMC | - | 0.001 µM
Nc1ncnc2c1ncn2[C@@H]1C=C(CO)[C@@H](O)[C@H]1O | 18601 unpaired | PBMC | - | 0.0534 µM
COc1ccc2ccc3c(c2c1)SCC(C)NC3=O | - | OM-10.1 | - | 3.1 µM
CCN1c2ncc(CCOc3ccc(S(=O)(=O)c4ccncc4)cc3C)cc2C(=O)N(C)c2cccnc21 | - | C8166 | RT-K103N Y181C | <0.01 µM
CC(C)C1=C2[C@H]3CC[C@@H]4[C@@]5(C)CC[C@H](OC(=O)C6C[C@@H](C(=O)O)C6(C)C)C(C)(C)[C@@H]5CC[C@@]4(C)[C@]3(C)CC[C@@]2(NC(=O)C(C)(C)NC(=O)c2ccc(N3CCS(=O)(=O)CC3)cc2)CC1=O | NL4-3 | MT-4 | V7A | 0.01001–0.05 µM
CCN(C(=O)C(=O)N(C)C)C1CN(C)CCn2c1nc(C(=O)NCc1ccc(F)cc1)c(O)c2=O | - | MT-4 | - | <1 µM
C=CCN(C(=O)OCc1ccc([N+](=O)[O-])cc1)C1CCN(C[C@H]2CN(C(=O)C3CCCC3)C[C@]2(O)c2ccccc2)CC1 | NL4-3 X4 CLADE B | PBMC | - | >1 µM
CCN1c2ncc(CCOc3ccc(C(=O)O)c4c3CCC4)cc2C(=O)N(C)c2cccnc21 | WT | C8166 | - | <0.1 µM
CN(C)C(=O)C(=O)N(C)C1CN(Cc2ccccc2)CCn2c1nc(C(=O)NCc1ccc(F)cc1)c(O)c2=O | - | MT-4 | - | <1 µM
COc1ccc2sc3c(c2c1)SCCn1ccnc1-3 | - | OM-10.1 | - | 1 µM
O=C(c1ccccc1)N(CCc1ccccc1)C[C@H](O)CN(CC1CCCC1)S(=O)(=O)Cc1ncc[nH]1 | IIIB | CEM | - | <1 µM
CCN1c2ncc(CCOc3ccc(C(=O)O)c4c3CCCC4)cc2C(=O)N(C)c2ccc(F)nc21 | WT | C8166 | - | <0.1 µM
CCN1c2ncc(CCOc3ccc(-c4ccc(CC(=O)O)cc4)cc3C)cc2C(=O)N(C)c2cccnc21 | - | C8166 | RT-K103N Y181C | <0.01 µM
COc1ccc(-c2c(C)nc3c(N4CC[C@@H](N5CCOCC5)C4)cc(C)nn23)cc1OC | - | H9 | - | 0.7 µM
COC(=O)[C@H](C)NP(=O)(OC[C@@H]1C=C[C@H](n2cc(C)c(=O)[nH]c2=O)O1)Oc1cc(Cl)ccc1Cl | A17 | PBMC | RT-Y181C | 0.037 µM
CCN1c2ncc(CCOc3ccc(NC(=O)C4CC4C(=O)O)cc3C)cc2C(=O)N(C)c2cccnc21 | - | C8166 | RT-K103N Y181C | >0.05 µM
COc1ccc(-n2c(=O)c(O)c3n(c2=O)CCN(Cc2ccc(F)cc2)C3=O)cn1 | - | MT-4 | - | <10 µM
CC(C)C1=C2[C@H]3CC[C@@H]4[C@@]5(C)CC[C@H](OC(=O)C6C[C@@H](C(=O)O)C6(C)C)C(C)(C)[C@@H]5CC[C@@]4(C)[C@]3(C)CC[C@@]2(NC(=O)C(C)(C)NC(=O)c2ccc(N3CCOCC3)cc2)CC1=O | NL4-3 | MT-4 | - | <0.005 µM
CC(=O)N1CCn2c(nc(C(=O)NCc3ccc(F)cc3)c(O)c2=O)C1CO | - | MT-4 | - | <50 µM
OCCC#Cc1nc(-c2ccc(F)cc2)c(-c2ccncc2)n1CCCc1ccccc1 | Nevirapine resistant N119 Clinical isolate | PBMC | - | 1 µM
Nc1nc(=O)n([C@H]2C=C[C@@H](CO)O2)cc1F | NL4-3 WT | PBMC | - | <1.3 µM
CCN1c2ncc(CCOc3ccc(-c4cccc(C(=O)O)c4)cc3C)cc2C(=O)N(C)c2cccnc21 | IIIB | C8166 | - | <0.01 µM
C=C(C)CN1CCNC(=O)c2oc3ccc(OC)cc3c21 | - | OM-10.1 | - | <0.08 µM
O=C1c2c(O)c(=O)n([C@@H]3C[C@H]3c3ccccc3)c(=O)n2CCN1Cc1ccc(F)cc1 | - | MT-4 | - | <10 µM
COC(=O)[C@H](C)NP(=O)(OC[C@@H]1C=C[C@H](n2cc(C)c(=O)[nH]c2=O)O1)Oc1c(OC)cccc1OC | IIIB WT | PBMC | - | 0.006 µM
Cc1ccc(-c2ccc3c(c2)C=C(C(=O)Nc2ccc(C[N+](C)(C)C4CCOCC4)cc2)CCC3)cc1 | TB1 CLADE C | PBMC | - | <1 µM
COc1ccc(-c2c(C)nc3c(N4CC[C@@H](NC(=O)Oc5ccccc5)C4)cc(C)nn23)cc1F | - | H9 | - | 0.3 µM
CC(C)[C@H](NC(=O)OCc1ccccn1)C(=O)N[C@@H](Cc1ccccc1)[C@@H](O)C[C@H](Cc1ccccc1)NC(=O)OCc1cccnc1 | NL4-3 | MT-4 | PR-L10R M46I L63P V82T I84V | <3 µM
Nc1nc(NC2CC2)c2ncn([C@H]3C=C[C@@H](CO)C3)c2n1 | XM-ABC-resistant | PBMC | RT-K65R L74V M184V Y115F | <87 µM
CCN1c2ncc(CCOc3ccc(S(=O)(=O)NCC(=O)O)c4ccccc34)cc2C(=O)N(C)c2cccnc21 | - | C8166 | RT-K103N Y181C | 0.1–1 µM
COC(=O)[C@H](C)NP(=O)(OC[C@@H]1C=C[C@H](n2cc(C)c(=O)[nH]c2=O)O1)Oc1ccc(Cl)cc1 | RTMDR | PBMC | RT M41L L74V T215Y V106N | 0.062 µM
COc1ccc(S(=O)(=O)N(CC2CCCC2)C[C@@H](O)CN(CCc2ccc(O)c(O)c2)C(=O)O[C@H]2CCOC2)cc1 | IIIB | CEM | - | <0.1 µM

Repeating the first 4 entries:

| compound | strain | cells | changes | result |
|---|---|---|---|---|
| O=C(N[C@@H](Cc1ccccc1)C(=O)C(F)(F)C(Cc1ccccc1)NS(=O)(=O)c1ccccc1)O[C@H]1CCOC1 | IIIB | CEM | - | <1 µM |
| COc1ccc(-c2c(-c3ccc(C)cc3)nc3c(N4CC[C@@H](NC(C)=O)C4)cc(C)nn23)cc1OC | - | H9 | - | 0.05 µM |
| CC1(C)c2nc(C(=O)NCc3ccc(F)cc3)c(O)c(=O)n2CCN1CC(=O)NCc1ccncc1 | - | MT-4 | - | <1 µM |
| CC(C)CN(C[C@@H](O)[C@H](Cc1ccccc1)NC(=O)O[C@H]1CO[C@H]2OCC[C@H]21)S(=O)(=O)c1ccc2c(c1)OCO2 | 92UG037 | PHA-PBM | - | 0.0004 µM |